# Data taken from patent US4933332A, “11-desoxy-17-α-hydroxycorticosterone derivatives” (priority 1988, dated 1990).
# System: mice
# Experiment: Toxicological study, single administration
structure (smiles),measurement,value
O=C(O)Cc1ccc(N(CCCl)CCCl)cc1,LD50,24 mg/kg
same,MTD,15 mg/kg
